Assay results reported in US9540343B2 (Gilead Sciences, Inc., priority 2011, dated 2017).

How the values were obtained:
in vitro = conditions: human, CC50 (nM), uninfected MT-4 cells, same protocol as Test A, CellTiter-Glo
MT-4 cells = conditions: uninfected MT-4 cells, same protocol as Test A, 5 days, CellTiter-Glo

Structure (SMILES)	CC50 at 5 days (in vitro)	CC50 (MT-4 cells)
NC(=O)c1cc(-c2cccnc2[C@H](Cc2cc(F)cc(F)c2)NC(=O)Cn2nc(C(F)(F)F)c3c2C[C@H]2C[C@@H]32)ccc1F (single isomer, unassigned) [Example 173]	25500 nM	
NC(=O)c1cc(-c2cccnc2[C@H](Cc2cc(F)cc(F)c2)NC(=O)Cn2nc(C(F)(F)F)c3c2C[C@@H]2C[C@H]32)ccc1F (single isomer, unassigned) [Example 174]	20000 nM	
NC(=O)c1cc(-c2cccnc2[C@H](Cc2cc(F)cc(F)c2)NC(=O)Cn2nc(C(F)F)c3c2C(F)(F)C2CC32)ccc1F (single isomer, unassigned) [Example 215]	19200 nM	
NC(=O)c1cc(-c2cccnc2[C@H](Cc2cc(F)cc(F)c2)NC(=O)Cn2nc(C(F)F)c3c2C(F)(F)C2CC32)ccc1F (single isomer, unassigned) [Example 216]		18.7 µM
NC(=O)c1cc(-c2cccnc2[C@H](Cc2cc(F)cc(F)c2)NC(=O)Cn2nc(C(F)(F)F)c3c2C(F)(F)C2CC32)ccc1F (single isomer, unassigned) [Example 449]	21100 nM	
NC(=O)c1cc(-c2cccnc2[C@H](Cc2cc(F)cc(F)c2)NC(=O)Cn2nc(C(F)(F)F)c3c2C(F)(F)C2CC32)ccc1F (single isomer, unassigned) [Example 450]		19.3 µM
NC(=O)c1cccc(-c2cccnc2[C@H](Cc2cc(F)cc(F)c2)NC(=O)Cc2c[nH]c3ccc(O)cc23)c1 [Example 39, (S)-3-(2-(2-(3,5-difluorophenyl)-1-(2-(5-hydroxy-1H-indol-3-yl)acetamido)ethyl)pyridin-3-yl)benzamide]	> 48000 nM	
NC(=O)c1cccc(-c2cccnc2[C@H](Cc2cc(F)cc(F)c2)NC(=O)Cc2c[nH]c3ccc(F)cc23)c1 [Example 50D, (S)-3-(2-(2-(3,5-difluorophenyl)-1-(2-(5-fluoro-1H-indol-3-yl)acetamido)ethyl)pyridin-3-yl)benzamide]	16900 nM	
NC(=O)c1cc(-c2cccnc2[C@H](Cc2cc(F)cc(F)c2)NC(=O)Cn2nc(C(F)F)c3c2C(F)(F)C2CC32)ccc1F (stereo partly drawn) [Example 60H, 5-(2-((1S)-1-(2-(3-(difluoromethyl)-5,5-difluoro-3b,4,4a,5-tetrahydro-1H-cyclopropa[3,4]cyclopenta[1,2-c]pyrazol-1-yl)acetamido)-2-(3,5-difluorophenyl)ethyl)pyridin-3-yl)-2-fluorobenzamide]	24000 nM	
NC(=O)c1cc(-c2cccnc2[C@H](Cc2cc(F)cc(F)c2)NC(=O)Cn2nc(C(F)F)c3c2C2CCC3C2)ccc1F (stereo partly drawn) [Example 83, (S)-5-(2-(2-(3,5-difluorophenyl)-1-(2-(4,5,6,7-tetrahydro-3-difluoromethyl-4,7-(methano)indazol-1-yl)acetamido)ethyl)pyridin-3-yl)-2-fluorobenzamide]	25500 nM	
NC(=O)c1cc(-c2cccnc2[C@H](Cc2cc(F)cc(F)c2)NC(=O)Cn2nc(C(F)(F)F)c3c2CCCC3(F)F)ccc1F [Example 102D, (S)-5-(2-(1-(2-(4,4-difluoro-3-(trifluoromethyl)-4,5,6,7-tetrahydro-1H-indazol-1-yl)acetamido)-2-(3,5-difluorophenyl)ethyl)pyridin-3-yl)-2-fluorobenzamide]	21500 nM	
NC(=O)c1cc(-c2cccnc2[C@H](Cc2cc(F)cc(F)c2)NC(=O)Cn2nc(C(F)(F)F)c3c2CCOC3)ccc1F [Example 112B, (S)-5-(2-(2-(3,5-difluorophenyl)-1-(2-(3-(trifluoromethyl)-6,7-dihydropyrano[4,3-c]pyrazol-1(4H)-yl)acetamido)ethyl)pyridin-3-yl)-2-fluorobenzamide]	> 53200 nM	
NC(=O)c1cc(-c2cccnc2[C@H](Cc2cc(F)cc(F)c2)NC(=O)Cn2nc(C(F)(F)F)c3c2CC2CC32)ccc1F (stereo partly drawn) [Example 122G, 5-(2-((1S)-2-(3,5-difluorophenyl)-1-(2-(3-(trifluoromethyl)-3b,4,4a,5-tetrahydro-1H-cyclopropa[3,4]cyclopenta[1,2-c]pyrazol-1-yl)acetamido)ethyl)pyridin-3-yl)-2-fluorobenzamide]	19900 nM	
NC(=O)c1cc(-c2cccnc2[C@H](Cc2cc(F)cc(F)c2)NC(=O)Cn2nc(C(F)(F)F)c3c2CCC3)ccc1F [Example 134, (S)-5-(2-(2-(3,5-difluorophenyl)-1-(2-(3-(trifluoromethyl)-5,6-dihydrocyclopenta[c]pyrazol-1(4H)-yl)acetamido)ethyl)pyridin-3-yl)-2-fluorobenzamide]	25200 nM	
NC(=O)c1cc(-c2cccnc2[C@H](Cc2cc(F)cc(F)c2)NC(=O)Cn2nc(C(F)(F)F)c3c2C2CC2C3)ccc1F (stereo partly drawn) [Example 169E, 5-(2-((1S)-2-(3,5-difluorophenyl)-1-(2-(3-(trifluoromethyl)-4,4-a,5,5a-tetrahydro-1H-cyclopropa[4,5]cyclopenta[1,2-c]pyrazol-1-yl)acetamido)ethyl)pyridin-3-yl)-2-fluorobenzamide]	19800 nM	
NC(=O)c1cc(-c2cccnc2[C@H](Cc2cc(F)cc(F)c2)NC(=O)Cn2nc(C(F)(F)F)c3c2C(F)(F)C2CC32)ccc1F (stereo partly drawn) [Example 181E, 5-(2-((1S)-1-(2-(5,5-difluoro-3-(trifluoromethyl)-3b,4,4a,5-tetrahydro-1H-cyclopropa[3,4]cyclopenta[1,2-c]pyrazol-1-yl)acetamido)-2-(3,5-difluorophenyl)ethyl)pyridin-3-yl)-2-fluorobenzamide]	27300 nM	
NC(=O)c1cc(-c2cccnc2[C@H](Cc2cc(F)cc(F)c2)NC(=O)Cn2nc(C(F)(F)F)c3ccccc32)ccc1F [Example 250, (S)-5-(2-(2-(3,5-difluorophenyl)-1-(2-(3-(trifluoromethyl)-1H-indazol-1-yl)acetamido)ethyl)pyridin-3-yl)-2-fluorobenzamide]	18500 nM	
O=C(Cc1c[nH]c2ccc(O)cc12)N[C@H](Cc1cc(F)cc(F)c1)c1ncncc1-c1ccc(Cl)cc1 [Example 284, (R)—N-(1-(5-(4-chlorophenyl)pyrimidin-4-yl)-2-(3,5-difluorophenyl)ethyl)-2-(5-hydroxy-1H-indol-3-yl)acetamide]	16200 nM	
NC(=O)c1cc(-c2cccnc2[C@H](Cc2cc(F)cc(F)c2)NC(=O)Cn2nc(C(F)(F)F)c3c2C(F)(F)CCC3)ccc1F [Example 311B, (S)-5-(2-(1-(2-(7,7-difluoro-3-(trifluoromethyl)-4,5,6,7-tetrahydro-1H-indazol-1-yl)acetamido)-2-(3,5-difluorophenyl)ethyl)pyridin-3-yl)-2-fluorobenzamide]	14800 nM	
O=C(Cc1c[nH]c2ccc(O)cc12)N[C@@H](Cc1cc(F)cc(F)c1)c1ncncc1-c1ccc(Cl)cc1 [Example 316, (S)—N-(1-(5-(4-chlorophenyl)pyrimidin-4-yl)-2-(3,5-difluorophenyl)ethyl)-2-(5-hydroxy-1H-indol-3-yl)acetamide]	21400 nM	
NC(=O)c1cc(-c2cccnc2[C@H](Cc2cc(F)cc(F)c2)NC(=O)Cn2nc(C(F)F)c3c2C(F)(F)CCC3(F)F)ccc1F [Example 344, (S)-5-(2-(1-(2-(3-(difluoromethyl)-4,4,7,7-tetrafluoro-4,5,6,7-tetrahydro-1H-indazol-1-yl)acetamido)-2-(3,5-difluorophenyl)ethyl)pyridin-3-yl)-2-fluorobenzamide]	17200 nM	
NC(=O)c1cc(-c2cccnc2[C@H](Cc2cc(F)cc(F)c2)NC(=O)Cn2nc(C(F)(F)F)c3c2CNCC3)ccc1F [Example 352, (S)-5-(2-(2-(3,5-difluorophenyl)-1-(2-(3-(trifluoromethyl)-4,5,6,7-tetrahydro-1H-pyrazolo[3,4-c]pyridin-1-yl)acetamido)ethyl)pyridin-3-yl)-2-fluorobenzamide]	32900 nM	
NC(=O)c1cccc(-c2cccnc2[C@H](Cc2cc(F)cc(F)c2)NC(=O)Cn2ccc3ccccc32)c1 [Example 426, (S)-3-(2-(1-(2-(1H-indol-1-yl)acetamido)-2-(3,5-difluorophenyl)ethyl)pyridin-3-yl)benzamide]	> 53000 nM	
O=C(Cc1c[nH]c2ccc(O)cc12)NC(Cc1cc(F)cc(F)c1)c1nccnc1-c1ccc(Cl)cc1 (centres unmarked) [Example 443I, N-(1-(3-(4-chlorophenyl)pyrazin-2-yl)-2-(3,5-difluorophenyl)ethyl)-2-(5-hydroxy-1H-indol-3-yl)acetamide]	16400 nM	
NC(=O)c1cc(-c2cccnc2[C@H](Cc2cc(F)cc(F)c2)NC(=O)Cn2ccc(C(F)(F)F)n2)ccc1F [Example 455, (S)-5-(2-(2-(3,5-difluorophenyl)-1-(2-(3-(trifluoromethyl)-1H-pyrazol-1-yl)acetamido)ethyl)pyridin-3-yl)-2-fluorobenzamide]	> 53200 nM	
NC(=O)c1cc(-c2cccnc2[C@H](Cc2cc(F)cc(F)c2)NC(=O)Cn2nc(C(F)(F)F)c3c2CCCCC3)ccc1F [Example 458, (S)-5-(2-(2-(3,5-difluorophenyl)-1-(2-(3-(trifluoromethyl)-5,6,7,8-tetrahydrocyclohepta[c]pyrazol-1(4H)-yl)acetamido)ethyl)pyridin-3-yl)-2-fluorobenzamide]	15700 nM	
NC(=O)c1cc(-c2cccnc2[C@H](Cc2cc(F)cc(F)c2)NC(=O)Cn2nc(C(F)(F)F)c3c2C2CC2C3(F)F)ccc1F (stereo partly drawn) [Example 462J, 5-(2-((1S)-1-(2-(4,4-difluoro-3-(trifluoromethyl)-4,4-a,5,5a-tetrahydro-1H-cyclopropa[4,5]cyclopenta[1,2-c]pyrazol-1-yl)acetamido)-2-(3,5-difluorophenyl)ethyl)pyridin-3-yl)-2-fluorobenzamide]	18000 nM	
NC(=O)c1cc(-c2cccnc2[C@H](Cc2cc(F)cc(F)c2)NC(=O)Cn2nc(C(F)F)c(C3CC3)c2C(F)F)ccc1F [Example 562, (S)-5-(2-(1-(2-(4-cyclopropyl-3,5-bis(difluoromethyl)-1H-pyrazol-1-yl)acetamido)-2-(3,5-difluorophenyl)ethyl)pyridin-3-yl)-2-fluorobenzamide]	17800 nM	
NC(=O)c1cc(-c2cccnc2[C@H](Cc2cc(F)cc(F)c2)NC(=O)Cn2nc(C(F)(F)F)c3c2CCCC3)ccc1F [Example 589, (S)-5-(2-(2-(3,5-difluorophenyl)-1-(2-(3-(trifluoromethyl)-4,5,6,7-tetrahydro-1H-indazol-1-yl)acetamido)ethyl)pyridin-3-yl)-2-fluorobenzamide]	17900 nM	
